# Laboratory results: PubChem BioAssay AID624099 (ICCB-Longwood, 2012)
# Purpose: 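Host factors E2 relies on to silence an HPV18 LCR reporter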 (primary screen)
# Cells: human C33A cervical carcinoma cells (HPV-negative) stably expressing BPV1 E2 and an HPV18 LCR luciferase reporter
# Knock-down reagent: siRNA pool against human genes, 40 nM
# Time to read-out: 72 h
# Measurement: 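HPV18 LCR reporter light per well, converted to plate-wise z-scores that exclude control wells, and averaged over triplicate plates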
# Scale: mean z-score and z-score: higher = stronger reporter signal, weaker E2 silencing
# Hit rule: 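Mean z ≥ 2 together with z ≥ 2 in two or more of the three replicates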
# The deposit covers about 21,000 reagents; shown is an unselected part. 497 of all reagents (2.4%) count as active. 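Higher z means weaker E2 silencing; only reporter increases were scored, and knock-downs that hurt cell survival may mask genuine repressor factors.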
Gene,mean z-score,"z-score, replicate A","z-score, replicate B","z-score, replicate C",Call
USP49,-1.17,-1.13,-1.14,-1.25,inactive
MAP1LC3B,1.08,1.41,0.88,0.96,inactive
SART3,-1.07,-1.29,-1.06,-0.85,inactive
HSAJ2425 (retired record),-0.14,-0.09,-0.37,0.05,inactive
ACSM3,1.43,1.64,1.54,1.11,inactive
SH2D6,-0.39,-0.34,-0.29,-0.52,inactive
VANGL1,2.06,2.29,1.98,1.92,inactive
CD300C,0.52,0.76,0.31,0.47,inactive

4 consecutive reagents already listed, quoted:
Gene,mean z-score,"z-score, replicate A","z-score, replicate B","z-score, replicate C",Call
SART3,-1.07,-1.29,-1.06,-0.85,inactive
HSAJ2425 (retired record),-0.14,-0.09,-0.37,0.05,inactive
ACSM3,1.43,1.64,1.54,1.11,inactive
SH2D6,-0.39,-0.34,-0.29,-0.52,inactive

Next reagents follow:
Gene,mean z-score,"z-score, replicate A","z-score, replicate B","z-score, replicate C",Call
MUC4,0.38,0.7,0.13,0.3,inactive
PHF13,-0.14,0.3,0.07,-0.79,inactive
LOC285344 (retired record),-0.36,-0.49,-0.36,-0.24,inactive
MAGEB18,0.44,-0.07,0.6,0.8,inactive
TNFSF13,0.02,-0.18,0.16,0.09,inactive
KPNA3,-0.62,-0.4,-0.74,-0.7,inactive
USP35,0.26,0.45,0.13,0.19,inactive
SERPINC1,-0.45,-0.03,-0.47,-0.85,inactive
FCRL4,1.48,1.16,1.52,1.77,inactive
NLRP10,0.18,-0.2,0.36,0.4,inactive
ZNF142,-0.57,-0.67,-0.36,-0.68,inactive
TMEM190,2.21,1.31,2.25,3.06,active
LOC388504 (retired record),-1.34,-1.57,-1.15,-1.3,inactive
DESI2,0.39,-0.27,0.56,0.87,inactive
STING1,-0.15,-0.1,-0.27,-0.08,inactive
